Some compounds share one wording; it may come from a single statement.
How the values were obtained:
gut microbiota = assay: Effect of QSIs on gut (cecal) microbiota, 16S rRNA analysis; type: in vivo, chickens; details: for Enterococcus relative abundance in treated group: NC 4% (QSI-5 sentence), 4.3% (QSI-8 sentence); for Erysipelatoclostridium relative abundance in treated group: NC 7.2%; for Firmicutes relative abundance in treated group: NC 91.4%; for alterations in the gut microbiota at the phylum level: compared to the NC or PC group, P > 0.05; for alpha diversity (phylogenetic diversity, richness, evenness) of the gut microbiota: compared with both NC and PC
[1] = Body weight gain and feed conversion ratio in field simulated trial; type: in vivo, chickens; details: to day 42; average overall feed intake/average BWG; not significant vs NC
[2] = cecum, printed as NC to treated, NC 0%
[3] = cecum, printed as NC to treated
[4] = cecum, printed as NC to treated, not significant

Cc1ccc(CN2CCN(CCCc3ccccc3)CC2)cc1 [QSI-5]
Clostridium sensu stricto 1 relative abundance in treated group (gut microbiota; [2]): 2.1% | Lactobacillus relative abundance in treated group (gut microbiota; [2]): 1.1% | Ruminiclostridium 5 relative abundance in treated group (gut microbiota; [2]): 3.3% | Flavonifractor relative abundance in treated group (gut microbiota; cecum, printed as NC to treated, NC 2.9%): 6% | Enterococcus relative abundance in treated group (gut microbiota; [3]): 0% | Erysipelatoclostridium relative abundance in treated group (gut microbiota; [3]): 10.8% | Ruminococcus (torques group) relative abundance in treated group (gut microbiota; cecum, printed as NC to treated, NC 9%): 6% | Firmicutes relative abundance in treated group (gut microbiota; [4]): 95% | alterations in the gut microbiota at the phylum level (gut microbiota): did not cause significant alterations | alpha diversity (phylogenetic diversity, richness, evenness) of the gut microbiota (gut microbiota): no difference | Overall feed conversion ratio (FCR) [1]: 1.48

CCc1ccccc1NC1NC(c2c(C)nc3ccccn23)=CS1 (stereo not drawn) [QSI-8]
increase in abundance of Butyricicoccus in the gut (gut microbiota; P < 0.05): > 4 folds | Bacillus relative abundance in treated group (gut microbiota; [2]): 1.8% | Butyricicoccus relative abundance in treated group (gut microbiota; [2]): 4.3% | Lactobacillus relative abundance in treated group (gut microbiota; [2]): 4% | Enterococcus relative abundance in treated group (gut microbiota; [3]): 0% | Erysipelatoclostridium relative abundance in treated group (gut microbiota; [3]): 16.6% | Firmicutes relative abundance in treated group (gut microbiota; [4]): 95% | alterations in the gut microbiota at the phylum level (gut microbiota): did not cause significant alterations | alpha diversity (phylogenetic diversity, richness, evenness) of the gut microbiota (gut microbiota): no difference

OCCC1CN(C2CCN(c3ccccc3)CC2)CCN1CCCc1ccccc1 (stereo not drawn) [QSI-10]
increase in abundance of Lactobacillus in the gut (gut microbiota; P < 0.05): > 30 folds | Escherichia-Shigella relative abundance in treated group (gut microbiota; cecum, printed as 6.7% to 11.9%): 11.9% | Lactobacillus relative abundance in treated group (gut microbiota; [2]): 31% | Proteobacteria relative abundance in treated group (gut microbiota; cecum, printed as NC to treated, NC 8.6%, not significant): 13.7% | alterations in the gut microbiota at the phylum level (gut microbiota): did not cause significant alterations | alpha diversity (phylogenetic diversity, richness, evenness) of the gut microbiota (gut microbiota): no difference

COc1cc(NS(=O)(=O)c2ccc(N)cc2)nc(OC)n1 [SDM, sulfadimethoxine, reference compound]
Overall feed conversion ratio (FCR) [1]: 1.49

— publication PMC9241644, “Evaluation of Novel Quorum Sensing Inhibitors Targeting Auto-Inducer 2 (AI-2) for the Control of Avian Pathogenic Escherichia coli Infections in Chickens” (Microbiology Spectrum, 2022)
